# Structure probing of HIV-1 leader RNA with DMS

RNA: 5' end of the HIV-1 NL4-3 genome, made in vitro. Positions 1-437 read:
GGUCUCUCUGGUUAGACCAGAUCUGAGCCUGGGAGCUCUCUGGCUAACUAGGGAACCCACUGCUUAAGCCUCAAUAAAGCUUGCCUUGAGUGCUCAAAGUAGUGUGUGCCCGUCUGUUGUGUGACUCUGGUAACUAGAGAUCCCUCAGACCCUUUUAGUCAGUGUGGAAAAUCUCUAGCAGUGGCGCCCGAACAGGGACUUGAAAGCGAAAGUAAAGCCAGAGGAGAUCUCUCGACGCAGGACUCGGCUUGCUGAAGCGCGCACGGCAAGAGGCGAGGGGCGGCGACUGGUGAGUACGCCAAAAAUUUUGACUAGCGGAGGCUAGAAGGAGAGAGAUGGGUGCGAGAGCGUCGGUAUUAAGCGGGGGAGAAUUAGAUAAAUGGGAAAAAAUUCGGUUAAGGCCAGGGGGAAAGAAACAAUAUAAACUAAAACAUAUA

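Randomly mutated transcripts starting with one, two or three G (1G, 2G, 3G), capped or uncapped, were folded for 30 min at 37 °C. Monomer and dimer bands were cut from native gels after folding in high salt (300 mM KCl, 5 mM MgCl2) or low salt (40 mM KCl, 0.1 mM MgCl2). Gel slices were treated with 170 mM dimethyl sulfate for 15 min at 37 °C and read by mutational profiling against an ethanol control.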

Values are winsor-normalised DMS reactivities of A and C; higher means more reactive, usually unpaired.
One numbering serves 1G, 2G and 3G.
A position is written with its base.

position	domain	1G uncapped low-salt dimer	3G capped low-salt monomer	2G uncapped low-salt dimer	3G uncapped high-salt monomer
A271	SL1	0.55	0.44	0.57	0.49
C274	SL1	0.26	0.85	0.26	0.76
A276	SL1	0.46	1.15	0.41	1.14
C281	none	0.27	0.38	0.46	0.32
C284	SL2	0.15	0.20	0.17	0.20
A286	SL2	0.60	0.48	0.65	0.54
C287	SL2	0.38	0.30	0.44	0.32
A293	SL2	0.88	0.71	0.89	0.74
A296	SL2	0.55	0.58	0.63	0.61
C297	SL2	0.11	0.18	0.15	0.14
C299	SL2	0.06	0.05	0.06	0.08
C300	none	0.06	0.02	0.04	0.09
A301	none	0.25	0.23	0.27	0.23
A302	none	1.26	1.22	1.29	1.16
A303	none	0.07	0.06	0.07	0.07
A304	none	0.15	0.11	0.16	0.15
A305	none	0.70	0.74	0.73	0.72
A311	none	1.33	1.10	1.33	1.22
C312	SL3	0.07	0.11	0.08	0.12
A314	SL3	0.03	0.02	0.04	0.04
C316	SL3	0.05	0.12	0.06	0.10
A319	SL3	0.91	0.80	0.94	0.85
C322	SL3	0.03	0.02	0.04	0.03
A324	SL3	0.08	0.10	0.08	0.13
A326	none	0.89	0.86	0.96	0.92
A327	none	1.10	1.00	1.12	1.01
A330	none	0.82	0.96	0.89	0.93
A332	none	0.52	0.63	0.51	0.61
A334	AUG	0.44	0.46	0.42	0.52
A336	AUG	0.89	0.70	0.81	0.71
C343	AUG	0.32	0.56	0.37	0.64
A345	none	1.24	1.22	1.27	1.28
A347	none	0.27	0.16	0.28	0.25
C349	none	0.29	0.26	0.35	0.28
C352	none	0.37	0.37	0.42	0.32
A356	none	1.01	0.94	0.99	0.80
A359	none	0.54	0.44	0.58	0.54
A360	none	0.53	0.44	0.63	0.53
C362	none	0.25	0.48	0.43	0.49
A368	none	0.83	0.99	0.85	0.94
A370	none	0.49	0.52	0.55	0.53
A371	none	0.91	0.98	0.97	0.91
A374	none	0.54	0.41	0.55	0.48
A376	none	0.74	0.71	0.80	0.74
A378	none	0.23	0.22	0.20	0.23
A379	none	0.60	0.59	0.63	0.60
A380	none	0.83	0.84	0.86	0.81
A385	none	0.53	0.55	0.58	0.53
A386	none	1.30	1.41	1.38	1.31
A387	none	0.24	0.22	0.23	0.24
A388	none	0.09	0.06	0.08	0.08
A389	none	0.17	0.11	0.17	0.16
A390	none	0.86	0.97	0.94	0.94
C393	none	0.54	0.63	0.68	0.58
A398	none	0.25	0.14	0.22	0.16
A399	none	0.39	0.18	0.31	0.17
C402	none	0.04	0.03	0.05	0.03
C403	none	0.03	0.03	0.04	0.03

From the data files of Ye et al. 2022, doi:10.1038/s41594-022-00746-2.